In patent publication US20250002564A1, “MODIFIED MULTABODY CONSTRUCTS, COMPOSITIONS, AND METHODS” (HOSPITAL FOR SICK CHILDREN, published 2025):
Read-outs that look alike come from different tables or passages of the source.

Key:
[1] = molecular target: T1, SARS-CoV-2 receptor binding domain (RBD), wild type, His-tagged (SARS-CoV-2, UniProt P0DTC2 319-541); assay: method and format not given
T1 construct: domain: RBD; also called His-tagged RBD; BEI NR52309

[2] = molecular target: T1, SARS-CoV-2 receptor binding domain …; assay: method and format not given; remark: listed apart in the source

B1: mAb 80 (antibody, V domains shown)
VH: QVQLVQSGAEVKKPGSSVKVSCKASGGTFNRYAFSWVRQAPGQGLEWMGGIIPIFGTANYAQKFQGRVTITADESTSTAYMELSSLRSEDTAVYYCARSTRELPEVVDWYFDLWGRGTLVTVSS
VL: DIVMTQSPDSLAVSLGERATINCKSSQSVLYSSNNKNYLAWYQQKPGQPPKLLIYWASTRESGVPDRFSGSGSGTDFTLTISSLQAEDVAVYYCQQYYSAPLTFGGGTKVEIKR
notes: also called IgG 80; Antibody 80
In the case of B1, the Kd [1] is reported as 0.142 µM.

B2: mAb 298 (antibody, V domains shown)
VH: QVQLVQSGAEVKKPGASVKVSCKASGGTFSTYGISWVRQAPGQGLEWMGWISPNSGGTDLAQKFQGRVTMTRDTSTSTVYMELSSLRSEDTAVYYCASDPRDDIAGGYWGQGTLVTVSS
VL: not shown
notes: also called IgG 298; Antibody 298
Work on B2 yielded a Kd [2] of 0.024 µM.
